Pooled drug test results. Numbers come from NIAID ChemDB, via PubChem.

All rows: tests in culture; species: Hepatitis C virus; read-out: EC50

An empty or dashed field is not shown.

compound	strain or isolate	method	cell line	mutations	result
COC(=O)N[C@H](C(=O)N1CCCC1c1ncc(-c2ccc(-c3ccc(-c4cnc([C@@H]5CC(C)CN5C(=O)[C@@H](NC(=O)CO)C(C)C)[nH]4)cc3)cc2)[nH]1)C(C)C	1a	luciferase	Lunet	Y93C	0.0074 µM
NC(=S)Nc1cccc(OCCCCCOc2ccc(N3CCOCC3)cc2)c1		reporter gene / fluorescence	Ava5-EG(delta4AB)SEAP		0.001–1 µM
COC(=O)C1=C(C)c2ccc(Cl)cc2-c2c(C3CCCCC3)c3ccc(C(=O)OC)cc3n2C1		replicon	Huh7		0.01–1 µM
CC(C)Nc1nc(NCC(F)F)nc2ccc(-c3ccc(F)cc3)nc12		replicon			0.25–2 µM
NC(=S)Nc1cccc(NCCCCCCc2ccccc2)c1		reporter gene / fluorescence	Ava5-EG(delta4AB)SEAP		0.001–1 µM
O=C(O)c1ccc2c(C3CCCCC3)c3n(c2c1)CCCc1ccccc1-3		replicon	Huh7		1–10 µM
NC(=S)Nc1ccc2c(c1)Cc1cc(NC(=O)C3CCCCC3)ccc1-2		reporter gene / fluorescence	Ava5-EG(delta4AB)SEAP		0.001–1 µM
CN(C)S(=O)(=O)NC(=O)c1ccc2c(C3CCCCC3)c3n(c2c1)C[C@@H](O)[C@@H](O)c1ncccc1-3		replicon	Huh7		>10 µM
CN(CCS(C)(=O)=O)c1nc(NCc2ccc(F)cc2)nc2ccc(-c3ccc(C(N)=O)cc3)nc12		replicon			<0.1 µM
O=C(O)c1ccc2c(C3CCCCC3)c3c4ccccc4ncn3c2c1		replicon	Huh7		>10 µM
CCOc1nc(NCc2ccc(F)cc2)nc2ccc(-c3ccc(NC(=O)C4(N)CC4)cc3)nc12		replicon			<0.1 µM
C[N+](C)(C)S(=O)(=O)NC(=O)c1ccc2c(C3CCCCC3)c3n(c2c1)CC(C(=O)N1CCOCC1)=Cc1ccccc1-3		replicon	Huh7		0.01–1 µM
CCOc1nc(NCc2ccc(F)cc2)nc2ccc(-c3cccc(N(CCO)S(C)(=O)=O)c3)nc12		replicon			<0.1 µM
COc1ccc(OCCCCCOc2cccc(NC(N)=S)c2)c(Cl)c1		reporter gene / fluorescence	Ava5-EG(delta4AB)SEAP		0.001–1 µM
CCOc1nc(NCc2ccc(S(N)(=O)=O)cc2)nc2ccc(-c3ccc(F)c(Cl)c3)nc12		replicon			<0.1 µM
CCNC(=S)Nc1cccc(OCCCCCc2ccccc2)c1		reporter gene / fluorescence	Ava5-EG(delta4AB)SEAP		0.001–1 µM
N#CC1(NC(=O)c2ccc(-c3ccc4nc(NCc5ccc(S(N)(=O)=O)cc5)nc(NCC(F)(F)F)c4n3)cc2)CC1		replicon			<0.1 µM
COC(=O)c1ccc2c(C3CCCCC3)c3n(c2c1)CC(C(=O)N1CCN(c2ccncc2)CC1)=Cc1ccccc1-3		replicon	Huh7		1–10 µM

2 of the rows above, restated:

compound	strain or isolate	method	cell line	mutations	result
CCOc1nc(NCc2ccc(S(N)(=O)=O)cc2)nc2ccc(-c3ccc(F)c(Cl)c3)nc12		replicon			<0.1 µM
NC(=S)Nc1cccc(NCCCCCCc2ccccc2)c1		reporter gene / fluorescence	Ava5-EG(delta4AB)SEAP		0.001–1 µM

ECn is the concentration giving n% inhibition of infection, replication or growth. Lines come from different laboratories, so protocols vary. Two numbers with a dash give a range or band.